Results of unrelated studies side by side (data: NIAID ChemDB).

Shared fields: whole-cell or culture tests; organism: Mycobacterium tuberculosis

ECn is the concentration giving n% inhibition of infection, replication or growth.

compound,strain,setting,read by,read-out,cells,changes,dose,value
CC(NNC(=O)c1ccncc1)c1ccc(F)cc1,H37Rv (ethambutol-resistant),,,MIC,,,,≤0.49 µg/mL
O=c1ccc2c(N3CCCCC3)cc(N3CCOCC3)nc2[nH]1,H37Rv,,BACTEC,EC50,,,,>6.25 µg/mL
CCCCCOc1ccccc1NC(=O)OCC[NH+]1CCCC1,My 331/88,,,MIC,,,,62.5 µM
NC(=O)c1cnccn1,T6790,,,MIC,,,,30 µg/mL
Cc1ccc2c(Cl)c(Cc3ccccc3)c(N3CCCCC3)nc2n1,H37Rv,,BACTEC,inhibition,,,6.25 µg/mL,41%
CCCN(C(=O)COc1cc2c(O)c3c(O)c(C)c4c(c13)C(=O)[C@@](C)(O/C=C/[C@H](OC)[C@@H](C)[C@@H](OC(C)=O)[C@H](C)[C@H](O)[C@H](C)[C@@H](O)[C@@H](C)/C=C/C=C(/C)C(=O)N2)O4)N1CCCCC1,H37Rv,,,MIC,,,,0.045 µg/mL
Cc1ccc(C(=O)NCc2cccnc2)c(O)c1,H37Rv,14 d,,MIC,,,,250 µM
COC1CC(OC2CCC3(C)C(CCC4C3CCC3(C)C(C5=CC(=O)OC5)CCC43O)C2)OC(C)C1O,H37Rv,,BACTEC,inhibition,,,12.5 µg/mL,0%
Cc1ccc(C(=O)NCc2ccccn2)c(O)c1,H37Rv,21 d,,MIC,,,,125 µM
FC(F)(F)c1cccc(-c2cn3cc(Cl)sc3n2)c1,H37Rv,,,inhibition,,,6.25 µg/mL,74%
CCCc1ccc(-c2cc(CN3CCOCC3)c(C)n2-c2ccc(Cl)cc2)cc1,H37Rv,,,MIC90,,,,31.66 µM
[O-][n+]1c2ccccc2[n+]([O-])c2c3ccccc3[nH]c21,H37Rv,,resazurin,MIC,VERO,,,0.78 µg/mL
Cn1cnc2c(NS(=O)(=O)Cc3ccccc3)nc(Cl)cc21,H37Rv,,visual reading,MIC99,,,,>25 µM
CNn1cc(C(=O)O)c(=O)c2cc(F)c(N3CCN(C)CC3)cc21,22 isolates,,,MIC90,,,,4 µg/mL
NC(=O)c1cnccn1,ATCC 35828,,,MIC,,,,>900 µg/mL
CC1COc2c(N3CCN(C)CC3)c(F)cc3c(=O)c(C(=O)O)cn1c23,CDC1551,,resazurin,MIC,,,,0.3 µg/mL
Cn1cnc2c(NC(=O)c3cccc(C#N)c3)nc(Cl)cc21,H37Rv,,visual reading,MIC99,,,,25 µM
Cc1cccc(C(=O)NCc2cccnc2)c1O,H37Rv,14 d,,MIC,,,,250 µM
Clc1ccc(-n2ncc(C(c3ccccc3)n3ccnc3)c2-c2ccccc2)c(Cl)c1,ATCC 35828 (pyrazinamide-resistant),,,MIC50,,,,48.9 µM
Cc1ccc(-c2cc(CN3CCOCC3)c(C)n2-c2ccc(F)cc2)cc1,H37Rv DR1,,,MIC,,V681I,,5.4 µM
Cn1cnc2c(NC(=O)Nc3ccc(F)cc3)nc(Cl)cc21,H37Rv,,visual reading,MIC99,,,,6.5 µM
Clc1cc(N2CCOCC2)nc2nc(N3CCOCC3)ccc12,H37Rv,,BACTEC,inhibition,,,6.25 µg/mL,0%
CO[C@H]1/C=C/O[C@@]2(C)Oc3c(C)c(O)c4c(O)c(c(/C=N/N5CCN(C)CC5)c(O)c4c3C2=O)NC(=O)/C(C)=C\C=C\[C@H](C)[C@H](O)[C@@H](C)[C@@H](O)[C@@H](C)[C@H](OC(C)=O)[C@@H]1C,16 strains (rifampicin-susceptible),,,MIC50,,,,0.1 µg/mL
Cn1cnc2c(NS(=O)(=O)c3cccc(Cl)c3)nc(Cl)cc21,H37Rv,,visual reading,MIC99,,,,12.5 µM
CCCCCCCCCCOc1cccc(NC(=O)OCCN2CCOCC2)c1,My 331/88,,,MIC,,,,32 µM
CCCCN(C(=O)COc1cc2c(O)c3c(O)c(C)c4c(c13)C(=O)[C@@](C)(O/C=C/[C@H](OC)[C@@H](C)[C@@H](OC(C)=O)[C@H](C)[C@H](O)[C@H](C)[C@@H](O)[C@@H](C)/C=C/C=C(/C)C(=O)N2)O4)N1CCCCC1,H37Rv,,,MIC,,,,0.09 µg/mL
Clc1cn2cc(-c3ccccc3)nc2s1,H37Rv,,,inhibition,,,6.25 µg/mL,29%
CCCc1ccc(-n2c(-c3ccc(OC)cc3)cc(CN3CCOCC3)c2C)cc1,H37Rv,,,MIC90,,,,7.31 µM
O=[N+]([O-])c1ccc(-c2cn3ccsc3n2)cc1,H37Rv,,,MIC,,,,>6.25 µg/mL
CN[C@@H]1[C@H](O[C@H]2[C@H](O[C@H]3[C@H](O)[C@@H](O)[C@H](N=C(N)N)[C@@H](O)[C@@H]3N=C(N)N)O[C@@H](C)[C@]2(O)C=O)O[C@@H](CO)[C@H](O)[C@H]1O,ATCC 27294,,,MIC90,,,,0.06 µM
CCCN(CC)C(=O)COc1cc2c(O)c3c(O)c(C)c4c(c13)C(=O)[C@@](C)(O/C=C/[C@H](OC)[C@@H](C)[C@@H](OC(C)=O)[C@H](C)[C@H](O)[C@H](C)[C@@H](O)[C@@H](C)/C=C/C=C(/C)C(=O)N2)O4,H37Rv,,,MIC,,,,0.09 µg/mL
CCCCCCCCOc1ccccc1NC(=O)OCC[NH+]1CCCC1,My 331/88,,,MIC,,,,32 µM
COc1cccc2c1C(=O)c1c(O)c3c(c(O)c1C2=O)C[C@@](O)(/C(C)=N/NC(=O)c1ccc(Cl)c(Cl)c1)C[C@H]3O[C@H]1C[C@H](N)[C@H](O)[C@H](C)O1,H37Rv,,,MIC,,,,>12.5 µg/mL
CNc1ccccc1C(=O)O[C@@H]1[C@@H](C)[C@]2(O)[C@@H]3C=C(C)C(=O)[C@@H]3CC(C)=C[C@H]2[C@@H]2C(C)(C)[C@]12OC(=O)O,H37Ra,,,MIC,,,,200 µg/mL
Fc1ccc(-n2ncc(C(c3ccccc3)n3ccnc3)c2-c2ccccc2)c(F)c1,ATCC 35820 (streptomycin-resistant),,,MIC50,,,,≥100 µM
CO[C@H]1/C=C/O[C@@]2(C)Oc3c(C)c(O)c4c(O)c(c5c(c4c3C2=O)NC2(CCN(CC(C)C)CC2)N=5)=NC(=O)/C(C)=C\C=C\[C@H](C)[C@H](O)[C@@H](C)[C@@H](O)[C@@H](C)[C@H](OC(C)=O)[C@@H]1C,2219 (rifampin-resistant),,,MBC,,,,0.8 µg/mL
CO[C@H]1/C=C/O[C@@]2(C)Oc3c(C)c(O)c4c(O)c(c(/C=N/N5CCN(C)CC5)c(O)c4c3C2=O)NC(=O)/C(C)=C\C=C\[C@H](C)[C@H](O)[C@@H](C)[C@@H](O)[C@@H](C)[C@H](OC(C)=O)[C@@H]1C,ATCC 35828 (pyrazinamide-resistant),,,MIC90,,,,1.1 µM
O=C(NCc1cccnc1)c1cc(Br)cc(Br)c1O,H37Rv,14 d,,MIC,,,,125 µM
Clc1cn2cc(-c3ccncc3)nc2s1,H37Rv,,,MIC,,,,>6.25 µg/mL
O=c1nc2c(c(-c3ccc(F)cc3)[nH]1)COC/C2=C/c1ccc(F)cc1,H37Rv,,BACTEC,inhibition,,,12.5 µg/mL,0%
C/C(=N\NC(=O)c1ccncc1)c1ccc(F)cc1,Rifampicin-resistant,,,MBC,,,,>1.6 µg/mL
CCCCN(CCCC)N(CC)C(=O)COc1cc2c(O)c3c(O)c(C)c4c(c13)C(=O)[C@@](C)(O/C=C/[C@H](OC)[C@@H](C)[C@@H](OC(C)=O)[C@H](C)[C@H](O)[C@H](C)[C@@H](O)[C@@H](C)/C=C/C=C(/C)C(=O)N2)O4,H37Rv,,,MIC,,,,0.09 µg/mL
O=C(NCc1ccccn1)c1cc(Br)cc(Br)c1O,H37Rv,21 d,,MIC,,,,250 µM
O=C(NNCc1cccc(C(F)(F)F)c1)c1ccncc1,H37Rv (isoniazid-resistant),,,MIC,,,,>31.25 µg/mL
CCCCCOc1cccc(NC(=O)OCCN2CCCCC2)c1,My 331/88,,,MIC,,,,16 µM
CN1C(C)(C)CC(CN2c3ccccc3Sc3ccccc32)C1(C)C.O=C(O)/C=C\C(=O)O,H37Rv,,BACTEC,MIC bound,,,,>12.5 µg/mL
Oc1ccc(-c2cn3cc(Cl)sc3n2)cc1,H37Rv,,,inhibition,,,6.25 µg/mL,0%
O=C1C(=O)c2ccccc2C(O)=C1CCCc1ccc(C2CCCCC2)cc1,H37Rv,,BACTEC,inhibition,,,128 µg/mL,100%
CCCCCCCCCOc1cccc(NC(=O)OCC[NH+]2CCCC2)c1,My 331/88,,,MIC,,,,32 µM
O=C(Nc1ccc(Cl)cc1)Nc1nnc2nc(C(c3nc4nnc(NC(=O)Nc5ccc(Cl)cc5)n4[nH]c3=O)C3CCCC3=O)c(=O)[nH]n12,H37Rv,,BACTEC,MIC bound,,,,>12.5 µg/mL
Fc1ccc(-c2c(C(c3ccccc3)n3ccnc3)cnn2-c2ccc(F)cc2)cc1,ATCC 35820 (streptomycin-resistant),,,MIC50,,,,≥100 µM
Cc1ccc2c(O)c(C)c(=O)[nH]c2n1,H37Rv,,BACTEC,inhibition,,,6.25 µg/mL,0%
CCCCCCCCCOc1ccccc1NC(=O)OCCN1CCOCC1,My 331/88,,,MIC,,,,32 µM
CO[C@H]1/C=C/O[C@@]2(C)Oc3c(C)c(O)c4c(O)c(c(/C=N/N5CCN(C)CC5)c(O)c4c3C2=O)NC(=O)/C(C)=C\C=C\[C@H](C)[C@H](O)[C@@H](C)[C@@H](O)[C@@H](C)[C@H](OC(C)=O)[C@@H]1C,,,,MIC99,,526Leu,,≥640 µg/mL
C=C1CCC[C@@H]2[C@@](C)(CC3=CC(=O)C=CC3=O)[C@H](C)CC[C@]12C,H37Rv,,BACTEC,MIC,,,,64 µg/mL
CCc1ccc(-n2c(-c3ccc(OC)cc3)cc(CN3CCOCC3)c2C)cc1,H37Rv,,,MIC90,,,,40.63 µM
O=c1oc2ccc3ccccc3c2cc1-c1nc2ccccc2[nH]1,H37Rv,,BACTEC,inhibition,,,6.25 µg/mL,0%
CO[C@H]1/C=C/O[C@@]2(C)Oc3c(C)c(O)c4c(O)c(c(/C=N/N5CCN(C/C=C/c6ccccc6)CC5)c(O)c4c3C2=O)NC(=O)/C(C)=C\C=C\[C@H](C)[C@H](O)[C@@H](C)[C@@H](O)[C@@H](C)[C@H](OC(C)=O)[C@@H]1C,31 (rifampin-resistant),,,MBC,,,,0.4 µg/mL
Cc1ccc2c(N3CCCCC3)c(Cc3ccccc3)c(N3CCCCC3)nc2n1,H37Rv,,BACTEC,EC50,,,,<6.25 µg/mL
CCOC(=O)c1ccc(NC(=S)NC(=O)c2cccs2)o1,H37Rv,,BACTEC,MIC bound,,,,>12.5 µg/mL
CCCCCCOc1ccccc1NC(=O)OCCN(C)C,My 331/88,,,MIC,,,,32 µM
CC(=O)Nc1c(C)n(C)n(-c2ccccc2)c1=O,H37Rv,,BACTEC,inhibition,,,12.8 µg/mL,-4%
Cn1cnc2c(NC(=O)Nc3ccccc3F)nc(Cl)cc21,H37Rv,,visual reading,MIC99,,,,6.5 µM
CC(=O)NNC(=O)C(N)Cc1ccc(O)cc1,H37Rv,,BACTEC,MIC bound,,,,>12.5 µg/mL
COc1cnc2ccc(=O)n(CCN3CCC(NCc4cc(Cl)c(Cl)cn4)CC3)c2c1,BCG,,resazurin,MIC,,,,≤0.01 µg/mL
Cc1cc(=O)c(C(=O)O)c(C)n1-c1ccccc1,H37Rv,,BACTEC,MIC bound,,,,>12.5 µg/mL
O=C(N/N=C/c1cccc(C(F)(F)F)c1)c1ccncc1,Isoniazid-resistant,,,MIC,,,,>3.2 µg/mL
COc1ccc(-c2cc(=O)c3c(O)cc(O)c(-c4cc(-c5cc(=O)c6c(O)cc(OC)cc6o5)ccc4OC)c3o2)cc1,H37Rv,,BACTEC,inhibition,,,12.8 µg/mL,26%
Fc1ccccc1-c1c(C(c2ccccc2)n2ccnc2)cnn1-c1ccccc1,ATCC 35828 (pyrazinamide-resistant),,,MIC50,,,,≥100 µM
C=CCSC(=S)Nc1nc2ccc(C)cc2s1,H37Rv,,BACTEC,inhibition,,,128 µg/mL,100%
O=C(NNCc1ccccc1F)c1ccncc1,Erdman,inside macrophages,colony count,EC50,Macrophages,,,<0.28 µg/mL
CC(=O)Nc1ccc(/C=N/NC(=S)NC2CN3CCC2CC3)cc1,H37Rv,,BACTEC,MIC,,,,≥12.5 µg/mL
CCc1ccc(-c2cc(CN3CCOCC3)c(C)n2-c2ccc(F)cc2)cc1,H37Rv DR7,,,MIC,,Q40R,,0.16 µM
CSC(=S)NN=C1CCCC1,H37Rv,,BACTEC,MIC,VERO,,,0.78 µg/mL
COc1ccc(OC)c(-c2cn3cc(Cl)sc3n2)c1,H37Rv,,,inhibition,,,6.25 µg/mL,0%
C/C=C/C1=C(Cl)C(=O)[C@H](Cl)[C@]1(O)C(=O)OC,H37Rv,,BACTEC,MIC bound,,,,>12.8 µg/mL
Clc1ccc(-c2c(C(c3ccccc3)n3ccnc3)cnn2-c2ccc(Cl)cc2)cc1,ATCC 27294,,,MIC90,,,,27.3 µM
Cc1nc(NCCNCCO)nc2c1C(=O)Nc1ccccc1N2,H37Rv,,resazurin,inhibition,,,6.25 µg/mL,-16%
CC1COc2c(N3CCN(C)CC3)c(F)cc3c(=O)c(C(=O)O)cn1c23,ATCC 35822 (isoniazid-resistant),,,MIC90,,,,3.4 µM
N=C1OC(CN2CCN(c3ccccc3)CC2)CN1C(=S)Nc1ccccc1,H37Rv,,resazurin,inhibition,,,6.25 µg/mL,32%
O=C(NNCc1ccccc1)c1ccncc1,Erdman,,,MIC,,,,0.39 µg/mL

An empty or dashed field is not shown. MIC bound: limit read from a one-dose screen. Conditions beyond the fields shown may differ between rows. Inhibition is in % at the dose shown (toxicity tests: loss of growth or viability). A number after MIC or MFC names an inhibition level or a share of isolates.